Laboratory results taken from article PMC7765500 (Journal of Fungi, 2020).

Experiment: general procedure: Fmoc solid-phase peptide synthesis; rink amide resin and 2-Chlortrityl resin; HATU (conjugation)
Settings: whole synthesis, analytical RP-HPLC

With H-[dR][dK][dK][dW][dF][dW]-NH2 the “final HPLC purity” value was 96% purity.

Square brackets hold non-standard residues; d marks the D form.
